# Experiments:
# [1] = tested on: Mycobacterium tuberculosis; assay: Antitubercular activity against Mycobacterium tuberculosis H37Rv ATCC 27294 assessed as intracellular ATP level after 5 days by luminescence assay; type: functional
# Outline: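 Growth inhibition of M. tuberculosis H37Rv reported as MIC50. Compounds were dissolved in 90% DMSO (stock), twofold serially diluted in duplicate to 10 concentrations, and spotted into 384-well plates. Assays were run at least twice.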
# [2] = tested on: Mycobacterium tuberculosis; assay: Antimycobacterial activity against isoniazid, rifampin, streptomycin, ethambutol and ethionamide-resistant Mycobacterium tuberculosis TN768 assessed as intracellular ATP level after 5 days by luminescence assay
# [3] = tested on: Mycobacterium tuberculosis; assay: Antimycobacterial activity against isoniazid, rifampin, streptomycin, ethambutol and capreomycin-resistant Mycobacterium tuberculosis TN2557 assessed as intracellular ATP level after 5 days by luminescence assay
# [4] = tested on: Mycobacterium tuberculosis; assay: Antimycobacterial activity against isoniazid, rifampin, streptomycin and ethambutol-resistant Mycobacterium tuberculosis TN1811 assessed as intracellular ATP level after 5 days by luminescence assay
# [5] = tested on: Mycobacterium tuberculosis; assay: Antimycobacterial activity against isoniazid, rifampin, ethambutol and pyrazinamide-resistant Mycobacterium tuberculosis TN715 assessed as intracellular ATP level after 5 days by luminescence assay
# [6] = tested on: Mycobacterium tuberculosis; assay: Antimycobacterial activity against isoniazid, streptomycin, ethambutol and pyrazinamide-resistant Mycobacterium tuberculosis TN702 assessed as intracellular ATP level after 5 days by luminescence assay
# [7] = tested on: Mycobacterium tuberculosis; assay: Antimycobacterial activity against isoniazid, rifampin, streptomycin, ethambutol, ethionamide, kanamycin and ciprofloxacin-resistant Mycobacterium tuberculosis TN1618 assessed as intracellular ATP level after 5 days by luminescence assay
# [8] = tested on: Mycobacterium tuberculosis; assay: Antimycobacterial activity against isoniazid and rifampin-resistant Mycobacterium tuberculosis TN1314 assessed as intracellular ATP level after 5 days by luminescence assay
# [9] = tested on: Mycobacterium tuberculosis; assay: Antimycobacterial activity against isoniazid, rifampin, streptomycin, ethambutol, ethionamide and kanamycin-resistant Mycobacterium tuberculosis TN576 assessed as intracellular ATP level after 5 days by luminescence assay
# [10] = tested on: Mycobacterium tuberculosis; details: E8133
# [11] = tested on: Mycobacterium tuberculosis; assay: Antimycobacterial activity against isoniazid, rifampin and ethambutol-resistant Mycobacterium tuberculosis TN772 assessed as intracellular ATP level after 5 days by luminescence assay
# [12] = tested on: Mycobacterium tuberculosis; assay: Antimycobacterial activity against isoniazid, streptomycin and ethambutol-resistant Mycobacterium tuberculosis TN1195 assessed as intracellular ATP level after 5 days by luminescence assay
# [13] = tested on: Mycobacterium tuberculosis; assay: Antimycobacterial activity against rifampin, streptomycin, ethambutol, ethionamide, kanamycin and ciprofloxacin-resistant Mycobacterium tuberculosis TN565 assessed as intracellular ATP level after 5 days by luminescence assay
SMILES,MBC90 [1],MIC50 [1],MIC [2],MIC [3],MIC [4],MIC [5],MIC [6],MIC [7],MIC [8],MIC [9],MIC [10],MIC [11],MIC [12],MIC [1],MIC [13]
O=[N+]([O-])c1cccc(OCc2nnc(SCCCl)o2)c1,1.25 µM,190 nM,,,,,,,,,,,,,
O=[N+]([O-])c1cccc(Cc2nnc(SCCCl)o2)c1,1.25 µM,200 nM,,,,,,,,,,,,,
ClCCSc1nnc(COc2ccc(Cl)cc2Cl)o1,1.25 µM,110 nM,,,,,,,,,,,,,
ClCCSc1nnc(Cc2ccc(Cl)cc2Cl)o1,1.25 µM,40 nM,0.06 µg/mL,0.13 µg/mL,0.03 µg/mL,0.06 µg/mL,0.25 µg/mL,0.06 µg/mL,0.03 µg/mL,0.06 µg/mL,0.13 µg/mL,0.03 µg/mL,0.25 µg/mL,0.013 µg/mL,0.06 µg/mL

# — ChEMBL document CHEMBL1926580, “Identification and development of 2,5-disubstituted oxadiazole as potential candidate for treatment of XDR and MDR tuberculosis” (2012)
